The values below come from patent US20220017572A1, “GEMINOID LIPOPEPTIDE COMPOUNDS AND THEIR USES” (Erasmus University Medical Center Rotterdam, priority 2016, published 2022).

Chains of the proteins cited; added tags and fusions are not shown. Residues count along the entry.
UniProt P14340, 1476-1653 limits assumed: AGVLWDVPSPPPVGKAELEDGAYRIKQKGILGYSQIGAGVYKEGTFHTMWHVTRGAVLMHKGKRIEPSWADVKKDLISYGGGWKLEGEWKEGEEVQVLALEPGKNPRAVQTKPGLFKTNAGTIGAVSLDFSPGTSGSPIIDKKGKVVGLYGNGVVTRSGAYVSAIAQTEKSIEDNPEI

For the test, the target named is dengue 2 protease (Dengue virus type 2, UniProt P14340). Put plainly: Dengue 2 protease inhibition, hydrolysis of Z-RR-MCA. As for the experimental part:
The active site of the dengue protease is in the N-terminal part of NS3 which is also a serine protease with catalytic triad Asp79-His51-Ser135, but requires […] (CF40) for activity; the inhibition reported here was studied on a […] (CF40-GGGGSGGGG-NS3; (SEQ ID NO:54)) which has also been structurally characterized [Erbel et al., 2006; Luo et al. 2008].
Substrate was added in a concentration 10 times the Km, and the inhibitor compounds of type C (C16-KGnK-C16, C16-KAnK-C16, and C16-RAnR-C16) were added in increasing concentrations (1.0, 5.0, 10.0, 20.0, 40.0 μL) from a stock solution of 2 mg in 1 mL DMSO. The residual activity was measured in a Hitachi F2500 spectrofluorimeter, and plots were fitted using the Grafit® software (Erithracus Software, Horley, Surrey, UK). All the assays were calculated by the Morrison equation for competitive inhibition (eq. 1, [Morrison, 1969]). The amount of substrate used for the tight binding titration experiments follow all the requirements, where [S]<<Km for all enzymes, so the Kiapp=Ki.
Range of Proteases Inhibited by Geminoids, Determination of Ki with Z-RR-MCA (Dengue 2 Protease) and Ac-RVRR-MCA (Furin) (SEQ ID NO:60).

[1] abbreviates: read-out: Ki Dengue 2, gemini surfactants of type B, Table 3.

SMILES strings stand for the structures. Read-outs that look alike come from different tables or passages of the source.

As to `CCCCCCCCCC(=O)N[C@@H](CCCCN)C(=O)NCCCCCCNC(=O)[C@H](CCCCN)NC(=O)CCCCCCCCC`, under setting [1], the Ki (in general, the dissociation constant of the complex between target and ligand, obtained from inhibition or displacement) worked out at 3.45 µM. With `CCCCCCCCCCCC(=O)N[C@@H](CCCCN)C(=O)NCCCCCCNC(=O)[C@H](CCCCN)NC(=O)CCCCCCCCCCC`, under setting [1], the Ki amounted to 3.1 µM. On the same count and under the same terms, the value for `CCCCCCCC(=O)N[C@@H](CCCCN)C(=O)NCCNC(=O)[C@H](CCCCN)NC(=O)CCCCCCC` was 4.54 µM; that for `CCCCCCCCCCCCCC(=O)N[C@@H](CCCCN)C(=O)NCCNC(=O)[C@H](CCCCN)NC(=O)CCCCCCCCCCCCC` was 3.33 µM. In the case of `CCCCCCCCCCCC(=O)N[C@@H](CCCCN)C(=O)NCCNC(=O)[C@H](CCCCN)NC(=O)CCCCCCCCCCC`, the Ki (read-out: Ki for dengue 2 protease, text of discussion) was found to be 1.3 µM.
